Data set [1] deals with Influenza strain A549 A/WSN/33 (H1N1). Description: Influenza antiviral assay (A549 cells infected with A/WSN/33 (H1N1), neuraminidase fluorescence read-out). As to conditions: read-out: A549_A(H1N1) EC50, influenza A/WSN/33 (H1N1), 20 hours incubation.
Data set [2] concerns Human lung carcinoma A549 cells. The data set can be described thus: Cytotoxicity of uninfected parallel cultures (CellTiter-Glo). (ATP-based viability assays read luminescence as a measure of living cells.)

Consider `O=C1c2c(O)c(=O)ccn2N2CN1CC/C=C\CCOc1ccccc1C2c1ccccc1` (centres unmarked), for which the EC50 in data set [1] stood at 47 nM. Further, in data set [2], the half-maximal cytotoxic concentration (CC50) is greater than 2000 nM.

For `O=C1c2c(O)c(=O)ccn2N2CN1C/C=C\COc1ccccc1C2c1ccccn1` (single isomer, unassigned) [Compound 20B], in data set [1], the EC50 is 10000 nM. This molecule returned a CC50 in data set [2] greater than 2000 nM.

As for `O=C1c2c(O)c(=O)ccn2N2CN1C/C=C\COc1cc(F)ccc1C2c1ccccc1` (single isomer, unassigned) [Compound 42A], in data set [1], the EC50 was greater than 1000 nM. In data set [2], this molecule displayed a CC50 greater than 2000 nM.

Regarding `O=C1c2c(O)c(=O)ccn2N2CN1C/C=C\COc1ccccc1C2c1ccccn1` (single isomer, unassigned) [Compound 20A], in data set [1], the EC50 was found to be 93 nM. For the same molecule, the 50% cytotoxic concentration (CC50) in data set [2] was greater than 2000 nM.

Turning to `O=C1c2c(O)c(=O)ccn2N2CN1CCC/C=C/Cc1ccccc1C2c1ccccn1` (centres unmarked), the EC50 in data set [1] amounted to 142 nM. The molecule further returned a 50% cytotoxic concentration (CC50) in data set [2] greater than 20000 nM.

Take `O=C1c2c(O)c(=O)ccn2N2CN1C/C=C\COc1cc(F)ccc1C2c1ccccc1` (single isomer, unassigned) [Compound 42B]: the EC50 in data set [1] stood at 6 nM. Further, the CC50 in data set [2] is greater than 2000 nM.

As for `O=C1c2c(O)c(=O)ccn2N2CN1C1(/C=C/COc3c(ccc(F)c3F)C2c2ccccn2)CCC1` (centres unmarked), in data set [1], the EC50 came out at 2.9 nM. The 50% cytotoxic concentration (CC50) in data set [2] was greater than 100 nM.

For orientation: CC50 means the concentration at which the toxic effect on the cells reaches its halfway point. Read a low CC50 as harm at low concentration.

The values are drawn from patent publication US11312727B1, “Macrocyclic flu endonuclease inhibitors” (Janssen BioPharma, Inc., priority 2018, dated 2022).
